{"source": "paper PMC6882465", "about": "“Towards discovery of new leishmanicidal scaffolds able to inhibit Leishmania GSK-3” (Journal of Enzyme Inhibition and Medicinal Chemistry, 2019)", "data": [{"test_system": "peritoneal murine macrophages (PMM)", "assay": "Cytotoxicity on peritoneal murine macrophages (MTT)", "assay_type": "cell-based, Balb/c mice", "conditions": "Table S1", "values": [{"smiles": "O=C(CCl)c1ccc(Br)s1", "note": "[Compound 6]", "SI: Specificity Index (EC50 PMM/EC50 amas. ax)": 4.0}, {"smiles": "O=C(CCl)c1ccc(Cl)cc1", "note": "[Compound 7]", "SI: Specificity Index (EC50 PMM/EC50 amas. ax)": 14.6}, {"smiles": "O=C(CCl)c1cc(Cl)sc1Cl", "note": "[Compound 8]", "SI: Specificity Index (EC50 PMM/EC50 amas. ax)": 1.5}, {"smiles": "O=C(CCl)c1cc(Br)c(Br)s1", "note": "[Compound 10]", "SI: Specificity Index (EC50 PMM/EC50 amas. ax)": 6.6}, {"smiles": "CC(=O)C1=C(c2c[nH]c3ccccc23)C(=O)NC1=O", "note": "[Compound 16]", "SI: Specificity Index (EC50 PMM/EC50 amas. ax)": "> 20.0"}, {"smiles": "COc1ccc(-n2cnc3cc(C(=O)CBr)ccc32)cc1", "note": "[Compound 17]", "SI: Specificity Index (EC50 PMM/EC50 amas. ax)": "> 5.6"}, {"smiles": "COc1ccc(CNC(=O)Nc2nc(C)c(C(=O)CBr)s2)cc1", "note": "[Compound 19]", "SI: Specificity Index (EC50 PMM/EC50 amas. ax)": 2.2}]}]}
